Article PMC10998830, “Allosteric activation unveils protein-mass modulation of ATP phosphoribosyltransferase product release” (Communications Chemistry, 2024)

Experiments:
Test in all cases: purified protein
[1] = system: Nc1ncnc2c1ncn2[C@@H]1O[C@H](COP(=O)(O)OP(=O)(O)O)[C@@H](O)[C@H]1O; conditions: 25 °C, pH 8.5, 3.2 mM PRPP, 15 mM MgCl2, 100 mM KCl, unlabelled enzyme
[2] = system: Nc1ncnc2c1ncn2[C@@H]1O[C@H](COP(=O)(O)OP(=O)(O)OP(=O)(O)O)[C@@H](O)[C@H]1O; conditions: 25 °C, pH 8.5, 3.2 mM PRPP, 15 mM MgCl2, 100 mM KCl, unlabelled enzyme
[3] = system: O=P(O)(O)OC[C@H]1O[C@H](OP(=O)(O)OP(=O)(O)O)[C@H](O)[C@@H]1O; conditions: 25 °C, pH 8.5, 6.4 mM ATP, 15 mM MgCl2, 100 mM KCl, unlabelled enzyme

**Q.** With “AbATPPRT (Acinetobacter baumannii ACICU; R70A)” as the substance, how does the Km [1] read?
**A.** 1300 ± 100 µM

**Q.** What about the kcat [1] of the same substance?
**A.** 2.47 ± 0.06 s⁻¹

**Q.** And the Km [2]?
**A.** 700 ± 100 µM

**Q.** What about the kcat [2] of the same substance?
**A.** 2.17 ± 0.06 s⁻¹

**Q.** What about the Km [3] of the same substance?
**A.** 300 ± 40 µM

**Q.** And the kcat [3]?
**A.** 2.17 ± 0.06 s⁻¹
